According to patent US10307403B2, “Polymorphic forms and process” (GALECTO BIOTECH AB, priority 2015, dated 2019):

Test: Microbial limits within ICH stability study

**Q.** With `OC[C@H]1O[C@@H](S[C@@H]2O[C@H](CO)[C@H](O)[C@H](n3cc(-c4cccc(F)c4)nn3)[C@H]2O)[C@H](O)[C@@H](n2cc(-c3cccc(F)c3)nn2)[C@H]1O` [Form 1, 3,3′-Dideoxy-3,3′-bis-[4-(3-fluorophenyl)-1H-1,2,3-triazol-1-yl]-1,1′-sulfanediyl-di-β-D-galactopyranoside] as the molecule, how does the “Microbial Limits Bile-tolerant gram-negative bacteria” value (6 Months @ 40° C./75 RH) read?
**A.** The value was “absent/g”.

**Q.** And the “Microbial Limits TAMC” value (6 Months @ 40° C./75 RH)?
**A.** The value was <10 cfu/g.

**Q.** What about the “Microbial Limits TYMC” value (6 Months @ 40° C./75 RH) of the same molecule?
**A.** The value was <10 cfu/g.

**Q.** And the “Microbial Limits Bile-tolerant gram-negative bacteria” value (12 Months 25° C./60 RH)?
**A.** The value was “absent/g”.

**Q.** What about the “Microbial Limits TAMC” value (12 Months 25° C./60 RH) of the same molecule?
**A.** The value was <10 cfu/g.

**Q.** What about the “Microbial Limits TYMC” value (12 Months 25° C./60 RH) of the same molecule?
**A.** Its value is <10 cfu/g.

**Q.** And the “Microbial Limits TYMC” value (Initial, criterion NMT 10 cfu/g)?
**A.** The value was <10 cfu/g.

**Q.** What about the “Microbial Limits TAMC” value (Initial, criterion NMT 100 cfu/g) of the same molecule?
**A.** The value was <10 cfu/g.

**Q.** What about the “Microbial Limits Bile-tolerant gram-negative bacteria” value (Initial, criterion absent in 1 g) of the same molecule?
**A.** The value was “absent/g”.
